PubChem BioAssay AID1259414 – Drosophila RNAi Screening Center – 2018

- Purpose: 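Fly genes that alter Wolbachia amount inside host cells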 (primary screen)
- Cells: Drosophila JW18 cells infected with Wolbachia
- Reagents: long dsRNA against Drosophila genes, 0.25 µg dsRNA per well of a 384-well plate
- Duration: 5 days
- Conditions: cells persistently infected with Wolbachia before knock-down; no added drug
- Measurement: 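Imaged fluorescence in situ signal for Wolbachia 23S rRNA per DAPI-counted host cell, given as a robust z-score within each plate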
- Direction: Wolbachia per cell robust z: higher = more Wolbachia per host cell than the plate typical
- Rule for the call: 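Hit when robust z is 1.5 or more, or -1.5 or less, in at least two of three replicates; excludes dsRNAs with several or no targets, genes not expressed in JW18 and well A1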
In all, the deposit lists about 24,000 reagents; this is an unselected part of those that have a named target and a result. In the full data, about 1,210 (5%) got an active call. 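Inactive calls also include excluded dsRNAs with several or no targets, genes unexpressed in JW18, and well A1, regardless of score.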 Names joined by + are all predicted targets of the reagent. Reagent sequences are not shown.

gene | DRSC id | Wolbachia per cell robust z, rep 1 | Wolbachia per cell robust z, rep 2 | Wolbachia per cell robust z, rep 3 | Call
didum (dilute class unconventional myosin) | DRSC07603 | 0.472 | 0.585 | 0.271 | inactive
didum (dilute class unconventional myosin) | DRSC40837 | -1.47 | 0.341 | 1.15 | inactive
PIG-A (Phosphatidylinositol glycan anchor biosynthesis class A) | DRSC06982 | 0.222 | 0.776 | -0.785 | inactive
c11.1 | DRSC18749 | 0.0821 | 0.0566 | 0.318 | inactive
PIG-O (Phosphatidylinositol glycan anchor biosynthesis class O) | DRSC06123 | -0.628 | -1.11 | -0.31 | inactive
ova (ovaries absent) | DRSC02879 | 0.402 | 0.833 | 0.155 | inactive
Nepl15 (Neprilysin-like 15) | DRSC15630 | -0.779 | -12.6 | 0.4 | inactive
Pdp (Pyruvate dehydrogenase phosphatase) | DRSC17825 | -0.75 | -1.4 | -0.365 | inactive
Pdp (Pyruvate dehydrogenase phosphatase) | DRSC26725 | 0.618 | -0.701 | 1.53 | inactive
Rsod (Related to Sod) | DRSC15424 | -0.272 | -0.000281 | -0.519 | inactive
CG6793 | DRSC10714 | -0.439 | -1.94 | -1.51 | inactive
CG6793 | DRSC29291 | 0.735 | 0.0159 | -0.000368 | inactive
ssp (sunspot) | DRSC10252 | -0.0636 | -0.14 | 0.876 | inactive
ghi (ghiberti) | DRSC08985 | -0.179 | 0.0764 | -0.715 | inactive
Ugt303B3 (UDP-glycosyltransferase family 303 member B3) | DRSC14199 | 0.9 | -1.59 | 0.972 | inactive
Ugt303B3 (UDP-glycosyltransferase family 303 member B3) | DRSC26386 | 1.09 | 0.132 | -0.569 | inactive
Ugt303B3 (UDP-glycosyltransferase family 303 member B3) | DRSC39073 | -1.99 | -0.116 | 0.37 | inactive
CG14572 | DRSC11733 | -1.15 | 0.326 | -0.0928 | inactive
rtp (retinophilin) | DRSC12132 | -0.0819 | 0.0169 | 0.663 | inactive
Ctu1 (Cytosolic thiouridylase subunit 1) | DRSC07069 | 0.497 | 0.217 | 0.867 | inactive
COX6AL2 (Cytochrome c oxidase subunit 6A-like 2) | DRSC10082 | -0.302 | -5.04 | 0.654 | inactive
CG10959 | DRSC17769 | 1.18 | 0.883 | -2.76 | inactive
CG10959 | DRSC29120 | 0.076 | 0.996 | 0.0199 | inactive
CG31041 | DRSC13951 | 0.998 | -1.03 | 0.0301 | inactive
CG6726 | DRSC16101 | 0.829 | -1.09 | 0.709 | inactive
CG6726 | DRSC28130 | 1.02 | -1.03 | 0.00569 | inactive
aqz (aaquetzalli) | DRSC16570 | -3.47 | -0.00723 | 0.54 | inactive
aqz (aaquetzalli) | DRSC25042 | -1.02 | -0.554 | -0.613 | inactive
CG15236 | DRSC23025 | -0.167 | 0.0438 | -2.81 | inactive
CG15236 | DRSC25883 | -0.208 | -0.635 | 0.681 | inactive
CG15236 | DRSC39022 | 0.829 | 0.22 | 0.0566 | inactive
CG13855 | DRSC14705 | 0.975 | 0.471 | 0.938 | inactive
CG13855 | DRSC26677 | 0.704 | 0.339 | 1.72 | inactive
c-cup (calcutta cup) | DRSC00458 | -4.46 | -1 | -0.736 | inactive
DENR (Density regulated protein) | DRSC20151 | -0.243 | 1.37 | -1.72 | inactive
CG10669 | DRSC14261 | -4.12 | -1.02 | 1.28 | inactive
Dlip3 (Dorsal interacting protein 3) | DRSC07401 | -2.94 | -5.24 | 0.0694 | inactive
Dlip3 (Dorsal interacting protein 3) | DRSC29615 | 0.729 | -0.839 | 1.14 | inactive
Polr2I (RNA polymerase II subunit I) | DRSC16832 | 0.855 | -0.27 | 1.62 | inactive
mGluR (metabotropic Glutamate Receptor) | DRSC17215 | -0.245 | 0.26 | 0.752 | inactive
tsg (twisted gastrulation) | DRSC20380 | -1.1 | -0.513 | -0.809 | inactive
tsg (twisted gastrulation) | DRSC25436 | 0.155 | 1.83 | 1.59 | inactive

4 entries from above, reduced to “Wolbachia per cell robust z, rep 1”:
Ugt303B3 (UDP-glycosyltransferase family 303 member B3) [DRSC39073]: -1.99
CG14572 [DRSC11733]: -1.15
rtp (retinophilin) [DRSC12132]: -0.0819
Ctu1 (Cytosolic thiouridylase subunit 1) [DRSC07069]: 0.497

Continued.
gene | DRSC id | Wolbachia per cell robust z, rep 1 | Wolbachia per cell robust z, rep 2 | Wolbachia per cell robust z, rep 3 | Call
SCaMC | DRSC10293 | 0.525 | -0.665 | -0.156 | inactive
SCaMC | DRSC10415 | 0.427 | 0.458 | 0.1 | inactive
SCaMC | DRSC28518 | -1.09 | -0.0965 | -0.128 | inactive
CG9813 | DRSC16569 | -3.6 | -0.848 | -0.773 | inactive
CG9813 | DRSC26207 | 0.539 | -0.0711 | -0.201 | inactive
Or42b (Odorant receptor 42b) | DRSC04913 | -0.447 | -0.551 | -4.11 | inactive
Or42b (Odorant receptor 42b) | DRSC27273 | -0.442 | 0.0739 | -0.318 | inactive
eIF3e (eukaryotic translation initiation factor 3 subunit e) | DRSC11199 | 1.82 | -0.864 | 0.623 | inactive
Gr63a (Gustatory receptor 63a) | DRSC08438 | -0.415 | 0.351 | -0.00378 | inactive
TwdlZ (TweedleZ) | DRSC19154 | -1.29 | -0.946 | -0.0652 | inactive
CG5539 | DRSC04510 | -0.158 | 0.913 | 1.84 | inactive
mod(mdg4) + pre-mod(mdg4)-Z + pre-mod(mdg4)-T | DRSC13477 | 1.7 | 1.52 | 1.14 | inactive
mod(mdg4) + pre-mod(mdg4)-Z + pre-mod(mdg4)-T | DRSC17001 | -2.93 | 0.113 | 0.689 | inactive
CHKov1 (CHK domain ov1) | DRSC01566 | 1.02 | 0.413 | 0.346 | inactive
CHKov1 (CHK domain ov1) | DRSC01696 | -0.775 | -1.26 | -2.74 | inactive
CHKov1 (CHK domain ov1) | DRSC14258 | 0.563 | 0.773 | -0.315 | inactive
CHKov1 (CHK domain ov1) | DRSC20937 | -1.63 | -2.68 | -3.46 | inactive
CHKov1 (CHK domain ov1) | DRSC30063 | 0.139 | 0.225 | 0.874 | inactive
CG7227 | DRSC03032 | 0.759 | 1.21 | -0.16 | inactive
CG15147 | DRSC02447 | 1.8 | 0.231 | 0.117 | inactive
CG15147 | DRSC02448 | 1.82 | -1.82 | 1.69 | inactive
CG15147 | DRSC27255 | -0.0132 | 0.501 | 0.59 | inactive
Rrp45 | DRSC20198 | -0.514 | -1.08 | 0.256 | inactive
Rrp45 | DRSC29319 | 0.373 | -1.68 | 0.328 | inactive
Rbp6 (RNA-binding protein 6) | DRSC10072 | 0.594 | -0.439 | 1.21 | inactive
Rbp6 (RNA-binding protein 6) | DRSC10073 | -1.86 | -6.81 | -3.29 | inactive
Rbp6 (RNA-binding protein 6) | DRSC36532 | -4.36 | -0.024 | -0.234 | inactive
Rbp6 (RNA-binding protein 6) | DRSC36533 | -3.2 | 0.315 | 0.202 | inactive
